Pooled drug test results. Numbers come from NIAID ChemDB, via PubChem.

All rows: growth or infection tests; agent: Mycobacterium tuberculosis

Lines come from different laboratories, so protocols vary. Inhibition is in % at the dose shown (toxicity tests: loss of growth or viability). Two numbers with a dash give a range or band. MIC50, MIC90 and the like: level of inhibition, or share of isolates inhibited. Blank or dashed fields: not listed here. ECn is the concentration giving n% inhibition of infection, replication or growth. MIC bound: limit read from a one-dose screen.

structure	read-out	mutations	dose	conditions	strain	method	value
CCN1CCc2c(sc(NC(=O)c3c(F)c(F)c(F)c(F)c3F)c2C(=O)NC)C1	MIC	katG Y155 truncation mutant			H37Rv	turbidity	1.7 µM
CC1CCCCN1c1cncc(C(=O)NN)n1	MIC				H37Rv		250 µg/mL
Oc1ccccc1C(=S)NCc1ccc(Cl)cc1	MIC				My 331/88		1 µg/mL
COc1ccc(CSC(=S)Nc2ccc(C)c(Br)c2)cc1	MIC bound				H37Rv	BACTEC	>12.5 µg/mL
CN(C)c1ccc(C2C(Cl)C(=O)N2NC(=O)c2ccccc2-c2nc3ccccc3[nH]2)cc1	EC50				H37Rv		>0.031 µg/mL
Cc1ccn2nc(C)c(C(=O)NCc3ccc(-c4ccc(OC(F)(F)F)cc4)nc3)c2c1	MIC	katG mutant isoniazid resistant			INH-R1	resazurin	0.079 µg/mL
O=C(Cc1csc2nc(-c3ccccc3)cn12)N/N=C/C=C/c1ccc([N+](=O)[O-])o1	inhibition		12.5 µg/mL		H37Rv		87%
O=C1NC(=S)N/C1=C\c1ccc(O)cc1	EC50				H37Rv	BACTEC	>6.25 µg/mL
Cc1cc(-c2cc3c(cc2F)c(=O)c(C(=O)O)cn3C2CC2)cc(C)n1	MIC				3105-5		1 µg/mL
O=C(N/N=C/c1ccccc1[N+](=O)[O-])c1ccccc1-c1nc2ccccc2[nH]1	EC50				H37Rv		>0.031 µg/mL
O=C(Oc1ccc(Br)cc1C(=O)Nc1ccc(C(F)(F)F)cc1)c1ccccc1	MIC			14 d	9449/2006	broth dilution	1 µM
O=C(/C=C/c1ccccc1)n1cnc2ccc([N+](=O)[O-])cc21	MIC100				H37Rv	resazurin / visual reading	100 µg/mL
Cc1cccc(/C=C2/NC(=S)NC2=O)c1	EC50				H37Rv	BACTEC	<6.25 µg/mL
CCOC(=O)c1c(NC(=O)c2ccccc2)sc2c1CCN(C(=O)OC(C)(C)C)C2	MIC				H37Rv	resazurin	>100 µg/mL
Cc1c(N2CCCC(C(=O)N(C)C)C2)c([N+](=O)[O-])cc2c(=O)c(C(=O)O)cn(C(C)(C)C)c12	MIC				H37Rv		25.69 µM
O=C(Cc1csc2nc(-c3ccccc3)cn12)N/N=C/c1cccs1	inhibition		12.5 µg/mL		H37Rv		48%
O=C(Oc1ccc(Cl)cc1C(=O)Nc1ccc(Cl)c(Cl)c1)c1ccccc1	MIC			14 d	9449/2006	broth dilution	0.5 µM
NC(=O)c1cncc(-n2ccnc2)n1	MIC				Isoniazid-resistant		500 µg/mL
O=C1NC(=S)N/C1=C\c1c(Cl)cccc1Cl	EC50				H37Rv	BACTEC	>6.25 µg/mL
Cc1c(N2COCC2(C)C)c([N+](=O)[O-])cc2c(=O)c(C(=O)O)cn(-c3ccc(F)cc3F)c12	MIC				H37Rv		6.81 µM
N#CC(C#N)=c1c2nsnc2c(=C(C#N)C#N)c2nsnc12	MIC				H37Rv	BACTEC	6.25 µg/mL
COc1ccc(/C=N/NC(=O)c2ccccc2-c2nc3ccccc3[nH]2)cc1	inhibition		0.031 µg/mL		H37Rv		46%
CN(C)CC=C(c1ccccc1)c1ccc(-c2ccc(Br)cc2)cc1	MIC				ALI 3236		20 µg/mL
Cc1ccc(Nc2c(C#N)[n+]([O-])c3cc(Cl)ccc3[n+]2[O-])cc1	inhibition		12.5 µg/mL		H37Rv		99%
O=C1NC(=S)N/C1=C/C=C/c1ccccc1	EC50				H37Rv	BACTEC	<6.25 µg/mL
CC(=O)Nc1ccc(C2=N/C(=C\c3ccc(Cl)c(Cl)c3)C(=O)O2)cc1	inhibition		12.5 µg/mL		H37Rv	BACTEC	26%
O=C1NC(=S)N/C1=C/c1ccc(Cl)c(Cl)c1	EC50				H37Rv	BACTEC	<6.25 µg/mL
NC(=S)N/N=C(\CC(=O)c1ccc([N+](=O)[O-])cc1)C(=O)Nc1ncc([N+](=O)[O-])s1	MIC bound				H37Rv	BACTEC	>12.5 µg/mL
CC1CCCCN1c1cncc(C(N)=O)n1	MIC				Capreomycin-resistant		500 µg/mL
O=C(Oc1ccc(Cl)cc1C(=O)Nc1ccc(C(F)(F)F)cc1)c1ccccc1	MIC			21 d	9449/2006	broth dilution	0.5 µM
CN(C)C/C=C(\c1ccc(N)cc1)c1ccc(-c2ccc(Br)cc2)cc1	MIC				H37Ra		19.6 µg/mL
O=C(Cc1csc2nc(-c3ccccc3)cn12)N/N=C/c1ccc([N+](=O)[O-])cc1	MIC				H37Rv		>12.5 µg/mL
CCOC(=O)c1c(NC(=O)c2c(F)c(F)c(F)c(F)c2F)sc2c1CCOC2	EC50	rpoB S522L mutant			H37Rv	turbidity	0.13 µM
N#CCC(=O)N/N=C(\CC1(O)C(=O)Nc2c(Cl)ccc(Cl)c21)c1ccco1	MIC bound				H37Rv	BACTEC	>12.5 µg/mL
S=C(NCN1CCOCC1)c1cncc(-n2ccnc2)n1	MIC				Capreomycin-resistant		500 µg/mL
CCN(CC)CCCNc1nccc2c(C)c3[nH]c4ccncc4c3cc12	MIC bound				H37Rv	resazurin	>6.25 µg/mL
C=C/C(C)=C/[C@@]1(C)SC(=O)C(C)=C1O	MIC				PMH29		2.5 µg/mL
Oc1cc(Br)ccc1C(=S)NCc1ccc(Br)cc1	MIC				My 331/88		1 µg/mL
COc1ccc(/C=C2/NC(=S)NC2=O)c(OC)c1	inhibition		6.25 µg/mL		H37Rv	BACTEC	88%
CN(C)C/C=C(\c1ccc(O)cc1)c1ccc(-c2ccc(Br)cc2)cc1	MIC				H37Rv		5 µg/mL
Cc1nc2ccccc2n1C(=O)/C=C/c1ccccc1	MIC100				H37Rv	resazurin / visual reading	3.12 µg/mL
CCN1CCc2c(sc(NC(=O)c3c(F)c(F)c(F)c(F)c3F)c2C#N)C1	EC90	katG Y155 truncation mutant			H37Rv	turbidity	21 µM
Cc1ccc(CNC(=S)c2cc(C)ccc2O)cc1	MIC				My 331/88		0.125 µg/mL
NS(=O)(=O)c1ccc(NC2=C(Cl)C(=O)c3ccccc3C2=O)cc1	inhibition		12.5 µg/mL		H37Rv	BACTEC	-8%
O=C(Oc1cc(Cl)ccc1C(=O)Nc1ccc(F)cc1)c1ccccc1	MIC			21 d	331/88 (H37Rv)	broth dilution	8 µM
O=C1NC(=S)N/C1=C/c1cccc(Br)c1	inhibition		6.25 µg/mL		H37Rv	BACTEC	85%
CO[C@H]1/C=C/O[C@@]2(C)Oc3c(C)c(O)c4c(O)c(c5c(c4c3C2=O)NC2(CCN(CC(C)C)CC2)N=5)=NC(=O)/C(C)=C\C=C\[C@H](C)[C@H](O)[C@@H](C)[C@@H](O)[C@@H](C)[C@H](OC(C)=O)[C@@H]1C	MIC				2230 (rifampicin-resistant)		>2 µg/mL
CN(C)C/C=C(\c1ccc(Cl)cc1)c1ccc(-c2ccc(Br)cc2)cc1	MIC				ALI 282		≤5 µg/mL
O=C(Cc1nc2cc(Cl)c(Cl)cc2nc1CC(=O)c1cccnc1)c1cccnc1	MIC bound				H37Rv	BACTEC	>6.25 µg/mL
C/C(=C1\NC(=S)NC1=O)c1ccc(Cl)cc1	inhibition		6.25 µg/mL		H37Rv	BACTEC	0%
CCNC(=O)c1c(NC(=O)c2c(F)c(F)c(F)c(F)c2F)sc2c1CCN(CC)C2	MIC				H37Rv	resazurin	5.8 µM
CCCCCCCC(O)CC(=O)CCc1ccc(O)c(OC)c1	MIC				H37Rv		50 µg/mL
C/C(CC/C(C)=N/N=C(\N)c1ccccn1)=N\N=C(/N)c1ccccn1	MIC				H37Rv	BACTEC	≥12.5 µg/mL
O=C(/C=C/c1ccccc1)n1c(-c2cccc(Br)c2)nc2ccccc21	MIC100				H37Rv	resazurin / visual reading	50 µg/mL
CC(=O)NNc1nc(C)c(C(=O)NNC(=O)C(=O)Nc2c(C)cccc2C(C)(C)C)s1	MIC bound				H37Rv	BACTEC	>12.5 µg/mL
COc1ccc(O)c(C(=O)NCc2cccc(Cl)c2)c1	MIC				My 331/88		125 µg/mL
O=C(N/N=C/c1cccc([N+](=O)[O-])c1)c1ccccc1-c1nc2ccccc2[nH]1	inhibition		0.031 µg/mL		H37Rv		52%
O=C(Cc1csc2nc(-c3ccccc3)cn12)N/N=C/c1ccc(C(=O)O)cc1	EC50				H37Rv		>12.5 µg/mL
COC(=O)C1(O)c2ccccc2N=C2C(=O)c3ccccc3N21	inhibition		6.25 µg/mL		H37Rv	resazurin	-19%
Cc1cc2ncn(C(=O)/C=C/c3ccccc3)c2cc1C	MIC100				H37Rv	resazurin / visual reading	50 µg/mL
CN(C)C/C=C(\c1ccc(O)cc1)c1ccc(-c2ccccc2)cc1	MIC				H37Ra		49 µg/mL
Oc1ccc2ccccc2c1CN1CCOCC1	MIC bound				H37Rv	BACTEC	>12.5 µg/mL
O=C(N/N=C/c1ccc(O)cc1)c1ccccc1-c1nc2ccccc2[nH]1	EC50				H37Rv		<0.031 µg/mL
Nc1sc(-c2ccccc2)cc1C(=O)Nc1ccccc1	EC50				H37Rv	resazurin	108 µg/mL
Cc1c(N2CCC3(CC2)OCCO3)c([N+](=O)[O-])cc2c(=O)c(C(=O)O)cn(C(C)(C)C)c12	MIC				H37Rv		14.03 µM
O=C(/C=C/c1ccccc1)n1c(-c2ccc(Cl)cc2)nc2ccccc21	MIC100				H37Rv	resazurin / visual reading	>100 µg/mL
O=C(Oc1cc(Cl)ccc1C(=O)Nc1ccc(Cl)cc1)c1ccccc1	MIC			14 d	331/88 (H37Rv)	broth dilution	2 µM
CC/C(=C(\c1ccccc1)c1ccc(OCCN(C)C)cc1)c1ccccc1	MIC				XDR	resazurin	6.25–12.5 µg/mL
Cc1ccc(NC(=S)NC2CCCCC2)cc1Cl	inhibition		6.25 µg/mL		H37Rv	BACTEC	98%
O=C(/C=C/c1ccccc1)n1c(-c2cccc(Cl)c2)nc2ccccc21	MIC100				H37Rv	resazurin / visual reading	12.5 µg/mL
CC(=O)Oc1c(C)c2c(O)c3c1C1=C(OCOC1=C(C)C3=O)C(C)=CC(C)(O)C(O)C(C)C(O)C1C(=O)OC(C(C)C1O)C(C)(O)/C=C\C=C(\C)C(=O)N2	inhibition		12.8 µg/mL		H37Rv	BACTEC	62%
COc1cc(/C=N/NC(=O)c2ccccc2-c2nc3ccccc3[nH]2)ccc1O	inhibition		0.031 µg/mL		H37Rv		64%
CCC[CH2][Sn]1([CH2]CCC)[O]C(=O)CN=Cc2ccccc2[O]1	MIC				H37Rv	BACTEC	≥12.5 µg/mL
C[C@H]1COc2c(N3CCN(C)CC3)c(F)cc3c(=O)c(C(=O)O)cn1c23	MIC	gyrB mutant fluoroquinolone resistant			FQ-R1	resazurin	10 µg/mL
Cc1cc(C)cc(C(=O)NC(c2ccncc2)C2N=C(c3ccccc3)OC2=O)c1	inhibition		12.5 µg/mL		H37Rv	BACTEC	2%
CCN1CCc2c(sc(N)c2C(=O)Nc2ccccc2OC)C1	MIC				H37Rv	resazurin	>100 µg/mL
CC1(C)NC(=O)C(NC(=O)C(N)CC(=O)O)CCCCNC(=O)CCNC1=O	MIC bound				H37Rv	resazurin	>6.25 µg/mL
O=C1NC(=S)N/C1=C/c1cccc(F)c1	inhibition		6.25 µg/mL		H37Rv	BACTEC	73%
O=C(C1=NS(=O)(=O)c2ccc(Cl)cc2S1)c1ccc(Cl)c(Cl)c1	inhibition		6.25 µg/mL		H37Rv	resazurin	16%
O=C(Nc1cccc(F)c1)c1cc(Cl)ccc1O	MIC			21 d	331/88 (H37Rv)	broth dilution	8 µM
CCCCC(=O)OC[n+]1ccc2c(C)c3[nH]c4ccccc4c3c(C)c2c1	MIC bound				H37Rv	resazurin	>6.25 µg/mL
Cc1c(N2CCN(C)C(c3ccccc3)C2)c([N+](=O)[O-])cc2c(=O)c(C(=O)O)cn(C(C)(C)C)c12	MIC				H37Rv		>26.12 µM
CCCCNC(=O)OCCN=C1c2ccccc2C(Br)C(Br)c2ccccc21	MIC bound				H37Rv	BACTEC	>12.5 µg/mL
CN(C)C/C=C(/c1ccccc1)c1ccc(-c2ccc(Br)cc2)cc1	MIC				H37Rv		10 µg/mL

A second listing of 7 rows from above:

structure,read-out,mutations,dose,conditions,strain,method,value
Cc1cc(C)cc(C(=O)NC(c2ccncc2)C2N=C(c3ccccc3)OC2=O)c1,inhibition,,12.5 µg/mL,,H37Rv,BACTEC,2%
Cc1c(N2CCN(C)C(c3ccccc3)C2)c([N+](=O)[O-])cc2c(=O)c(C(=O)O)cn(C(C)(C)C)c12,MIC,,,,H37Rv,,>26.12 µM
O=C(Nc1cccc(F)c1)c1cc(Cl)ccc1O,MIC,,,21 d,331/88 (H37Rv),broth dilution,8 µM
C[C@H]1COc2c(N3CCN(C)CC3)c(F)cc3c(=O)c(C(=O)O)cn1c23,MIC,gyrB mutant fluoroquinolone resistant,,,FQ-R1,resazurin,10 µg/mL
CCCCNC(=O)OCCN=C1c2ccccc2C(Br)C(Br)c2ccccc21,MIC bound,,,,H37Rv,BACTEC,>12.5 µg/mL
CC(=O)Nc1ccc(C2=N/C(=C\c3ccc(Cl)c(Cl)c3)C(=O)O2)cc1,inhibition,,12.5 µg/mL,,H37Rv,BACTEC,26%
CC(=O)Oc1c(C)c2c(O)c3c1C1=C(OCOC1=C(C)C3=O)C(C)=CC(C)(O)C(O)C(C)C(O)C1C(=O)OC(C(C)C1O)C(C)(O)/C=C\C=C(\C)C(=O)N2,inhibition,,12.8 µg/mL,,H37Rv,BACTEC,62%